From patent publication US20260382604A1, “Inhibitors of Type 1 Methionyl-tRNA Synthetase and Methods of Using Them” (published 2026)
“And” between values parts separate entries of the source, which are not always exact repeats. Identical values can stand only once. Like-named read-outs stand apart in the source and are kept apart here.

How the values were obtained:
S. aureus = assay: Susceptibility testing (MIC), S. aureus; settings: for S. aureus MIC: serum-free conditions
Description: (§1) Media and culture conditions. Mueller Hinton broth (MHB), cation adjusted Mueller Hinton broth (CA-MHB), Todd Hewitt Broth (THB) and Brain Heart Infusion broth (BHI) were purchased from Becton Dickinson (Franklin Lakes, NJ). Tryptic soy agar (TSA) plates and TSA with 5% sheep blood plates were purchased from Remel (San Diego, CA). MHB was used to assay all Staphylococcus aureus strains. CA-MHB was used for Staphylococcus epidermidis, Enterococcus faecalis, Enterococcus faecium, Escherichia coil, and Pseudomonas aeruginosa. THB broth supplemented with 1% yeast extract was used for Streptococcus pneumoniae and Streptococcus pyogenes. Staphylococcus. Enterococcus, Escherichia, and Pseudomonas strains were cultured at 37 °C with ambient air. Streptococcus strains were cultured in 37 °C with 5% CO2. Separate conditions for radiolabeled precursor uptake assays are described below.
(§2) Susceptibility testing: Minimum inhibitory concentration (MIC) determinations are performed in triplicate in 96-well round bottom microtiter plates (Corning, Corning NY) as described by the Clinical and Laboratory Standards Institute (CLSI). Serial two-fold dilutions of compounds are added to plates in 50 μL volumes. An additional 50 μL of media containing bacterial cells (1×10^6 CFUs/mL) is then added to each well. Maximum DMSO concentrations are 0.5%. Plates are incubated at 37 °C for at least 18 h before reading the susceptibility result by optical absorbance (OD600) using a BioTek ELx800. The lowest concentration causing ≥90% growth inhibition compared to the untreated control is recorded as the MIC (and also corresponded to the visual MIC). MICs are measured at least twice and the higher value (if different) is recorded herein.

S. pyogenes = assay: Susceptibility testing (MIC), S. pyogenes; settings: for S. pyogenes MIC: serum-free conditions
Description: as §1, §2

T. cruzi = T. cruzi growth inhibition assay
Protocol: Trypanosoma crud growth inhibition assay: The Tulahuen strain of T. cruzi that expresses the Escherichia coli 3-galactosidase gene was utilized (PMID: 8913471). Mammalian stages of parasites were grown at 37 °C on monolayers of murine 3T3 fibroblasts in RPMI 1640 (Biowhittaker Inc., Walkersville, Md.) with 10% fetal bovine serum, penicillin, streptomycin, and glutamine. Growth inhibition assays were performed in 96-well tissue culture plates (Costar, Cambridge, Mass.). First, 3T3 fibroblasts were inoculated at 103/well using RPMI 1640 without phenol red (Biowhittaker Inc.) plus 10% fetal bovine serum and glutamine. The next day, the plates were infected with T. cruzi trypomastigotes at 104/well. After 4 h, drugs were added in serial dilutions to give a final volume of 200 μl/well. The plates were incubated at 37 °C in 5% CO2 atmosphere for 6 days. At this time. CPRG (100 μM final) and Nonidet P-40 (0.1% final) (Sigma Chemical Co., St. Louis, Mo.) were added and the plates were incubated at 37 °C for approximately 4 h. Wells with 0-galactosidase activity turned the media from yellow to red, and this was quantified on an enzyme-linked immunosorbent assay reader at A570.

MRSA = assay: Susceptibility testing (MIC), MRSA
Description: as §1, §2

[1] = read-out: In Vitro EC50, anti-T. cruzi activity in vitro (Table 3)
[2] = read-out: T. cruzi EC50, in vitro growth inhibition (Table 4)

| Structure (SMILES) | S. aureus MIC (S. aureus) | S. pyogenes MIC (S. pyogenes) [µg/mL] | EC50 (T. cruzi; [1]) | MRSA (ATCC33591) MIC (MRSA) | S. aureus (ATCC29213) MIC (S. aureus) [µg/mL] | S. pyogenes (ATCC19615) MIC (S. pyogenes) [µg/mL] | EC50 (T. cruzi; [2]) [nM] |
| --- | --- | --- | --- | --- | --- | --- | --- |
| COc1cc(Cl)c(-c2c(F)nc(-c3cc(C)nn3C)c3nc(Cc4nc5nc(Cl)ccc5[nH]4)cn23)cc1OC | 0.0357 µg/mL and 0.0195 µg/mL | 0.0335 | < 1.83 nM and 3.26 nM and 3.22 nM |  |  |  |  |
| COc1cc(Cl)c(-c2c(F)nc(-c3cnn(C4CC4)c3)c3nc(Cc4nc5nc(Cl)ccc5[nH]4)cn23)cc1OC | 0.0355 µg/mL and 0.0439 µg/mL | 0.0598 | 3.88 nM and 6.57 nM |  |  |  |  |
| COc1cc(Cl)c(-c2cnc(N3CCN(S(N)(=O)=O)CC3)c3nn(Cc4nc5nc(Cl)ccc5[nH]4)cc23)cc1OC |  |  |  | 0.441 µg/mL | 0.699 | 0.276 | > 1000 |
| COc1cc(Cl)c(-c2c(F)nc(-n3cnc(C)n3)c3nc(Cc4nc5nc(Cl)ccc5[nH]4)cn23)cc1OC | 0.256 µg/mL |  |  |  |  |  |  |
| COc1cc(F)c(-c2c(F)nc(-c3cnn(C)c3C)c3nc(Cc4nc5nc(Cl)ccc5[nH]4)cn23)cc1OC | 0.0446 µg/mL | 0.0259 | 24.5 nM and 25.3 nM |  |  |  |  |
| COc1cc(Cl)c(-c2c(F)nc(OC)c3nc(Cc4nc5nc(Cl)ccc5[nH]4)cn23)cc1OC | <0.0312 µg/mL | 0.118 |  |  |  |  |  |
| COc1cc(F)c(-c2c(F)ncc3nc(Cc4nc5nc(Cl)ccc5[nH]4)cn23)cc1OC | 0.250 µg/mL and 0.368 µg/mL | 2.27 | 52.2 nM and 69.8 nM |  |  |  |  |
| COc1cc(Cl)c(-c2cnc(OCC(C)(C)O)c3nn(Cc4nc5nc(Cl)ccc5[nH]4)cc23)cc1OC |  |  |  | 0.337 µg/mL | 0.292 | 0.197 | 292 |
| CCOc1nc(F)c(-c2cc(OC)c(OC)cc2Cl)n2cc(Cc3nc4nc(Cl)ccc4[nH]3)nc12 | 0.127 µg/mL | 0.0422 | 5.44 nM and 4.82 nM |  |  |  |  |
| COc1cc(Cl)c(-c2c(F)nc(-n3cncn3)c3nc(Cc4nc5nc(Cl)ccc5[nH]4)cn23)cc1OC | 0.222 µg/mL |  | 28.9 nM and 29.9 nM |  |  |  |  |
| COc1cc(Cl)c(-c2cnc(N3CCS(=O)(=O)CC3)c3nn(Cc4nc5nc(Cl)ccc5[nH]4)cc23)cc1OC |  |  |  | 0.072 µg/mL | 0.0835 | 0.12 | 329 |
| COc1cc(Cl)c(-c2c(F)nc(-c3c(C#N)cnn3C)c3nc(Cc4nc5nc(Cl)ccc5[nH]4)cn23)cc1OC | 0.0682 µg/mL | 0.383 | 22.7 nM |  |  |  |  |
| COc1cc(Cl)c(-c2cnc([S+](C)[O-])c3nn(Cc4nc5nc(Cl)ccc5[nH]4)cc23)cc1OC (centres unmarked) |  |  |  | 0.0463 µg/mL | 0.0465 | 0.136 |  |
| COc1cc(Cl)c(-c2c(F)nc(-c3c(C)nn(C)c3C)c3nc(Cc4nc5nc(Cl)ccc5[nH]4)cn23)cc1OC | 0.136 µg/mL | 0.0772 |  |  |  |  |  |
| CCc1ncn(-c2nc(F)c(-c3cc(OC)c(OC)cc3Cl)n3cc(Cc4nc5nc(Cl)ccc5[nH]4)nc23)n1 | 0.140 µg/mL |  |  |  |  |  |  |
| COc1cc(Cl)c(-c2c(F)nc(-c3ccn(C)n3)c3nc(Cc4nc5nc(Cl)ccc5[nH]4)cn23)cc1OC |  | 0.12 | < 1.83 nM and 3.42 nM and 2.89 nM |  |  |  |  |
| CCn1cc(-c2nc(F)c(-c3cc(OC)c(OC)cc3Cl)n3cc(Cc4nc5nc(Cl)ccc5[nH]4)nc23)cn1 | 0.0423 µg/mL and 0.0442 µg/mL | 0.0149 |  |  |  |  |  |
| COc1cc(Cl)c(-c2cnc(N3CCOCC3)c3nn(Cc4nc5nc(Cl)ccc5[nH]4)cc23)cc1OC |  |  |  | 0.0739 µg/mL and 0.110 µg/mL |  | 0.24 |  |
| COc1cc(Cl)c(-c2c(F)nc(-c3c(C)nn(C4COC4)c3C)c3nc(Cc4nc5nc(Cl)ccc5[nH]4)cn23)cc1OC | 0.146 µg/mL | 0.0946 | 14.6 nM and 11.2 nM |  |  |  |  |
| COc1cc(F)c(-c2c(F)nc(-c3c(C)cnn3C)c3nc(Cc4nc5nc(Cl)ccc5[nH]4)cn23)cc1OC | 0.173 µg/mL | 0.286 | 17.2 nM and 18.6 nM |  |  |  |  |
